Anti-infective test results gathered from many reports (values: NIAID ChemDB through PubChem).

Shared fields: growth or infection tests; agent: HIV-1; cells: ATH8; endpoint: EC50

ECn is the concentration giving n% inhibition of infection, replication or growth. Lines come from different laboratories, so protocols vary. Blank or dashed fields: not listed here.

compound	strain	read by	result
OC[C@@H]1CC[C@H](n2cnc3c(Br)ncnc32)O1	IIIB	cytopathic effect / trypan blue	<20 µM
Cc1cn([C@H]2C=C[C@@H](CO)O2)c(=O)[nH]c1=O	IIIB		4.1 µM
NC(=O)c1[nH]nc([C@@H]2O[C@H](CO)[C@@H](O)[C@H]2O)c1O	LAV Laboratory strain	cytopathic effect	>100 µg/mL
Cc1cn([C@H]2C[C@@H](N=[N+]=[N-])[C@@H](CO)O2)c(=O)[nH]c1=O	IIIB	cytopathic effect / trypan blue	>200 µM
COC1=C(N)C(=O)c2nc(-c3nc(C(=O)NNC(N)=O)c(C)c(-c4ccc(OC)c(OC)c4O)c3N)ccc2C1=O	LAV	p24	>100 µM
Nc1nc(=O)n([C@H]2CC[C@@H](CO)O2)cc1F	IIIB Laboratory strain	cytopathic effect / trypan blue	<0.5 µM
Nc1ccn([C@H]2CC[C@@H](CO)O2)c(=O)n1	IIIB	cytopathic effect / trypan blue	0.2 µM
Cc1cn([C@H]2C[C@H](N=[N+]=[N-])[C@@H](COP(=O)(O)CP(=O)(O)O)O2)c(=O)[nH]c1=O	IIIB	cytopathic effect / trypan blue	200 µM
Cc1cn([C@H]2C[C@H](N=[N+]=[N-])[C@@H](CO)O2)c(=O)[nH]c1=O	IIIB	cytopathic effect / trypan blue	<1 µM
O=c1[nH]cnc2c1ncn2[C@@H]1C[C@H](CO)[C@H]1CO	IIIB	cytopathic effect / trypan blue	>500 µM
Nc1ncnc2c1ncn2CCOCP(=O)(O)O		trypan blue	2.5 µM
Cc1cn([C@H]2C[C@H](N=[N+]=[N-])[C@@H](COP(=O)(O)O)O2)c(=O)[nH]c1=O	IIIB	cytopathic effect / trypan blue	14 µM
Cc1cn([C@H]2CC[C@@H](CO)O2)c(=O)[nH]c1=O	LAV	p24	200 µM
O=c1[nH]cnc2c1ncn2[C@H]1CC[C@@H](CO)O1		thymidine uptake	<5 µM
Nc1ncnc2c1ncn2CC#CCCl	IIIB	cytopathic effect / trypan blue	>100 µM
CSC[C@H](NC(=O)COc1cccc2cnccc12)C(=O)N[C@@H](Cc1ccccc1)[C@H](O)C(=O)N1CSC(C)(C)[C@H]1C(=O)NC(C)(C)C	LAI	trypan blue	0.1 µM
CSC[C@H](NC(=O)COc1cccc2cnccc12)C(=O)N[C@@H](Cc1ccccc1)[C@H](O)C(=O)N1CSC(C)(C)[C@H]1C(=O)NC(C)(C)C	LAI	cytopathic effect	0.1 µM
Nc1nc2c(ncn2[C@H]2C=C[C@@H](CO)C2)c(=O)[nH]1		cytopathic effect / XTT	0.19 µg/mL
Nc1ncnc2c1ncn2[C@H]1CC[C@@H](CO)O1	IIIB	cytopathic effect / trypan blue	<100 µM
Nc1ccn([C@@H]2O[C@H](CO)C3OC32)c(=O)n1		RT activity	<5 µM
Cc1cn([C@H]2CC[C@@H](COP(=O)(O)O)O2)c(=O)[nH]c1=O	IIIB Laboratory strain	cytopathic effect / trypan blue	>200 µM
CC(C)(C)NC(=O)[C@@H]1CCCN1C(=O)[C@@H](O)[C@H](Cc1ccccc1)NC(=O)[C@H](CC(N)=O)NC(=O)c1ccc2ccccc2n1	LAI	trypan blue	1 µM
Nc1nc(=S)c2ncn([C@H]3CC[C@@H](CO)O3)c2[nH]1	IIIB	cytopathic effect / trypan blue	>2 µM
Nc1ccn([C@@H]2C[C@H](CO)[C@H]2CO)c(=O)n1	IIIB	cytopathic effect / trypan blue	>500 µM
Nc1ncnc2c1ncn2[C@H]1CC[C@@H](CO)O1	IIIB	cytopathic effect / trypan blue	<20 µM
Nc1ncnc2c1ncn2[C@H]1CC[C@@H](CO)O1	IIIB Laboratory strain	cytopathic effect / trypan blue	<5 µM
Nc1nc2c(ncn2[C@H]2CC[C@@H](CO)O2)c(=O)[nH]1	IIIB	cytopathic effect	7 µM
Nc1ccn(C/C=C/CO)c(=O)n1	IIIB	cytopathic effect / trypan blue	>100 µM
Nc1ccn([C@H]2CC[C@@H](CO)O2)c(=O)n1	IIIB	cytopathic effect	0.2 µM
Nc1nc(=O)n(C=C=CCO)cc1F		cytopathic effect	100 µM
NC(=O)c1ncn([C@@H]2O[C@H](CO)[C@@H](O)[C@H]2O)n1		cytopathic effect	>2.5 µM
Nc1nc2c(ncn2[C@H]2CC[C@@H](CO)O2)c(=O)[nH]1	LAV	cytopathic effect	<10 µM
Nc1nc(N)c2ncn([C@H]3CC[C@@H](CO)O3)c2n1	IIIB	cytopathic effect / trypan blue	<200 µM
Nc1ncnc2c1ncn2C[C@H](O)CO	LAV Laboratory strain	cytopathic effect	>100 µg/mL
Nc1ncnc2c1ncn2C/C=C\CO	IIIB	cytopathic effect / trypan blue	>500 µM
Nc1ncnc2c1ncn2[C@H]1CC[C@@H](CO)O1	IIIB	cytopathic effect / trypan blue	<10 µM
Nc1ncnc2c1ncn2[C@@H]1C[C@H](CO)[C@H]1CO	IIIB	cytopathic effect / trypan blue	1.8 µM
CSC[C@H](NC(=O)COc1cccc2cnccc12)C(=O)N[C@@H](Cc1ccccc1)[C@H](O)C(=O)N1CSC(C)(C)[C@H]1C(=O)NC(C)(C)C	MN	cytopathic effect	0.03 µM
Nc1ncnc2c1ccn2[C@@H]1O[C@H](CO)[C@@H](O)[C@H]1O	LAV Laboratory strain	cytopathic effect	>5 µg/mL
CC(C)(C)NC(=O)[C@H]1N(C(=O)[C@@H](O)[C@H](Cc2ccccc2)NC(=O)[C@H](CC(N)=O)NC(=O)COc2cccc3ccccc23)CSC1(C)C	LAI	trypan blue	0.4 µM
Cc1cn([C@H]2C=C[C@@H](CO)O2)c(=O)[nH]c1=O	IIIB	cytopathic effect	<0.25 µg/mL
Nc1ncnc2c1ncn2CCOCP(=O)(O)O	IIIB	cytopathic effect / trypan blue	20 µM
Nc1nc2c(ncn2[C@H]2CC[C@@H](CO)O2)c(=O)[nH]1	IIIB	cytopathic effect / trypan blue	<5 µM
Cc1cn([C@H]2CC[C@@H](CO)O2)c(=O)[nH]c1=O	IIIB	cytopathic effect / trypan blue	101 µM
Nc1ncnc2c1ncn2C=C=CCCl	IIIB	cytopathic effect / trypan blue	>100 µM
Nc1nc2c(nc(Br)n2[C@@H]2C[C@H](CO)[C@H]2CO)c(=O)[nH]1	IIIB	cytopathic effect / trypan blue	>100 µM
CC(C)[C@H](NC(=O)N(C)Cc1ccccn1)C(=O)N[C@@H](Cc1ccccc1)[C@H](O)[C@@H](O)[C@H](Cc1ccccc1)NC(=O)[C@@H](NC(=O)N(C)Cc1ccccn1)C(C)C	IIIB	cytopathic effect / trypan blue	<0.9 µM

For reference, 4 entries again:

compound | strain | read by | result
Cc1cn([C@H]2C[C@@H](N=[N+]=[N-])[C@@H](CO)O2)c(=O)[nH]c1=O | IIIB | cytopathic effect / trypan blue | >200 µM
Nc1ccn([C@@H]2C[C@H](CO)[C@H]2CO)c(=O)n1 | IIIB | cytopathic effect / trypan blue | >500 µM
Cc1cn([C@H]2C=C[C@@H](CO)O2)c(=O)[nH]c1=O | IIIB | cytopathic effect | <0.25 µg/mL
Nc1ncnc2c1ncn2C[C@H](O)CO | LAV Laboratory strain | cytopathic effect | >100 µg/mL